Measurements reported in PubChem BioAssay AID504761 (Drosophila RNAi Screening Center, 2011).
The screen tested about 22,000 reagents; this is a random part of those that have a named target and a result. In the full data, 116 (0.52%) are marked active. 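Calls depend on retest data that are not deposited; infection was ranked per plate without normalising between plates; the unit of the infection score is not given.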 Raw values are not corrected between plates. The numbers tell different reagents against one gene apart. Names joined by + are all predicted targets of the reagent. Not given: the amount of reagent, the time to read-out.

Screen: 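Insect host genes that dengue virus relies on to spread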 (primary screen)
Cell system: D.Mel-2 cells from Drosophila
Knock-down reagent: long dsRNA against Drosophila genes
Challenge: infection with dengue virus type 2; dose and infection time not stated
Detection: 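Cells stained for dengue envelope protein and imaged; percent of infected cells per well on duplicate plates, ranked by infection, with stained nuclei counted for cell number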
Direction: infection score: higher = more virus-infected cells; cell count: higher = more cells in the well
Rule for the call: 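Low infection ranks in the two replicates (chance level up to 0.065) followed by a retest with a 1.5-fold or larger significant decrease, p below 0.05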
Calls: active = confirmed: knock-down lowers infection; inactive = not picked or not confirmed

gene knocked down,dsRNA no.,"infection score, replicate 1","infection score, replicate 2","cell count, replicate 1","cell count, replicate 2",Call
mRpL54,1,21.7,16.2,6190,6108,inactive
CG6503,1,5.04,13.8,1349,3857,inactive
CG6503,2,21.9,12.7,4273,4941,inactive
Kaz1-ORFB + Kaz1-ORFA,1,7.08,18,6089,4622,inactive
CG30339,1,0.51,1.32,6088,6225,inactive
dmrt11E,1,0.99,1.47,6384,6594,inactive
dmrt11E,2,1.89,4.1,6971,6169,inactive
amos,1,12.3,3.74,2817,5902,inactive
amos,2,2.48,2.42,6049,6523,inactive
CG1889 + CG43386,1,3.62,1.45,6767,6622,inactive
stum,1,1.55,2.49,6792,7032,inactive
stum,2,3.65,5.19,6684,6554,inactive
Mayo,1,8.87,,4069,326,inactive
CG6900 (retired record),1,6.27,4.97,5467,5670,inactive
lft,1,2.89,4.75,6162,6236,inactive
glu,1,12.6,2.41,4728,5195,inactive
glu,2,6.02,1.13,5711,5594,inactive
CG3356,1,18.7,27.6,6266,5793,inactive
CG3356,2,10.3,7.48,4997,2862,inactive
CG6701,1,15.3,17.2,5465,6117,inactive
Drsl6,1,8.18,4.5,6113,5262,inactive
CG13171,1,16.8,30.1,5870,6451,inactive
CG33111,1,5.65,4.74,5309,6816,inactive
CG33111,2,6.11,3.44,5419,6947,inactive
Cpr64Ad,1,1.87,2.43,6096,5590,inactive
Cpr64Ad,2,5.89,9.52,6010,5643,inactive
Sik2,1,15.4,1.31,2650,6109,inactive
Gr22e,1,0.14,0.23,6647,7064,inactive
CG10621,1,1.41,5.16,6240,6351,inactive
ATP8B,1,3.18,4.66,6917,6739,inactive
CG13502,1,4.08,7.83,7173,6692,inactive
CG13502,2,11.9,10.3,5399,5684,inactive
RpS10a,1,7.35,14.4,6732,6540,inactive
RpS10a,2,5.44,2.35,5427,5787,inactive
CG8006,1,5.14,4.48,6638,6222,inactive
Mtch,1,26.5,9.37,5245,5881,inactive
CG15572,1,1.33,2.97,6626,6320,inactive
CG42238,1,8.04,31.8,6316,5036,inactive

Records listed so far whose gene name begins with D or d (3):
gene knocked down,dsRNA no.,"infection score, replicate 1","infection score, replicate 2","cell count, replicate 1","cell count, replicate 2",Call
dmrt11E,1,0.99,1.47,6384,6594,inactive
dmrt11E,2,1.89,4.1,6971,6169,inactive
Drsl6,1,8.18,4.5,6113,5262,inactive

More results follow:
gene knocked down,dsRNA no.,"infection score, replicate 1","infection score, replicate 2","cell count, replicate 1","cell count, replicate 2",Call
Amacr,1,14,25.2,6204,6242,inactive
CG32486,1,12.8,8.08,4890,4998,inactive
CG32486,2,1.83,8.25,6352,5820,inactive
lncRNA:CR32658,1,6.54,7.75,6407,6854,inactive
lncRNA:CR32658,2,11.8,5.39,6423,6638,inactive
CG4660,1,13.2,3.96,5744,5652,inactive
CG33514,1,13.4,16.4,6506,6007,inactive
CG33514,2,4.12,2.14,6360,5923,inactive
CG33514,3,1.6,5.39,6063,6358,inactive
CG32213 + CG12519 + 825-Oak + 1 more,1,1.52,0.39,6363,6683,inactive
TrpRS,1,2.36,5.77,6104,6669,inactive
CG8915,1,3.73,45.7,6994,4813,inactive
so,1,1.13,1.37,6185,6508,inactive
CG5535,1,8.42,12,4406,5727,inactive
CG5535,2,,,381,290,inactive
RNaseX25,1,14.9,18,4562,5086,inactive
RNaseX25,2,18.5,24.1,6247,5848,inactive
Atg14,1,1.15,2.59,6080,6132,inactive
Atg14,2,2.3,21.1,5882,6296,inactive
betaNACtes3,1,22.3,27,5736,5797,inactive
CG7239,1,1.02,2.82,6069,7017,inactive
CG31087,1,2.31,7.99,6405,4457,inactive
CG4702,1,17.5,20,5139,5641,inactive
CG2120,1,1.47,3.33,6584,6487,inactive
CG2120,2,7.82,3.38,6497,6548,inactive
CG8176,1,1.12,10.3,6045,5770,inactive
CG34384,1,1.19,6.6,6131,6050,inactive
CG34384,2,5.24,3.22,6280,6456,inactive
CG34384,3,6.19,6.57,6369,6365,inactive
Ide,1,0.19,2.61,521,651,inactive
Mkp + CG34140,1,4.23,16.2,5722,4653,inactive
zf30C,1,5.65,13.2,5146,4142,inactive
Cox17,1,0.93,4.07,6557,6247,inactive
BCAS2,1,10.3,14.7,5524,5588,inactive
BCAS2,2,11.7,8.15,6174,6493,inactive
Obp56g,1,2.9,4.06,5594,6207,inactive
